This assay has as its system SVV. The experiment in a line: Co-immunoprecipitation of SVV with Fc chimera proteins, Western blot. To be noted: washes with NaCl from 125 mM up to 2M. On the technique in general: In western blotting, separated proteins are transferred to a membrane and probed.

B1: ANTXR1-Fc (protein)
chain: EDGGPACYGGFDLYFILDKSGSVLHHWNEIYYFVEQLAHKFISPQLRMSFIVFSTRGTTLMKLTEDREQIRQGLEELQKVLPGGDTYMHEGFERASEQIYYENRQGYRTASVIIALTDGELHEDLFFYSEREANRSRDLGAIVYCVGVKDFNETQLARIADSKDHVFPVNDGFQALQGIIHSILKKSCIEILAAEPSTICAGESFQVVVRGNGFRHARNVDRVLCSFKINDSVTLNEKPFSVEDTYLLCPAPILKEVGMKAALQVSMNDGLSFISSSVIITTTHCSDGS
modifications: left off: a dimerising Fc or GST
Take B1: the “intensity of viral protein bands with increasing salt concentration” value is given as “did not change significantly”.

Values taken from patent publication US12472218B2, “Seneca valley virus (SVV) cellular receptor targeted oncotherapy” (Memorial Sloan-Kettering Cancer Center, priority 2015, dated 2025).
